Compound potency records, mixed from different reports. Data source: NIAID ChemDB in PubChem.

All rows: whole-cell or culture tests; species: Mycobacterium tuberculosis

MIC bound comes from a single tested concentration. ECn is the concentration giving n% inhibition of infection, replication or growth. Percent inhibition refers to the dose given; in toxicity tests it is the harm to the cells. MIC50, MIC90 and the like: level of inhibition, or share of isolates inhibited. Blank or dashed fields: not listed here. Neighbouring rows are from separate reports.

SMILES | strain | method | tested at | endpoint | mutations | result
O=C(Nc1ccc(NC(=O)Oc2cccc3ccccc23)c2c1C(=O)c1ccccc1C2=O)Oc1cccc2ccccc12 | H37Rv | BACTEC | 12.5 µg/mL | inhibition | - | 20%
Clc1ccc(Nc2cc3nc4ccccc4n(-c4ccc(Cl)cc4)c-3cc2=NC2CCCCC2)cc1 | H37Rv | - | - | MIC | - | 0.33 µg/mL
C=C1CC(O)C2C(=C)C(=O)OC2C2C(C)C(=O)CC12 | H37Rv | BACTEC | - | MIC bound | - | >12.5 µg/mL
c1cncc(C2Nc3ccccc3S2)c1 | H37Rv | - | - | MIC | - | 4.4 µg/mL
CCOC(=O)c1ccc(-c2ccc[nH]2)nc1C | H37Rv | - | - | MIC | - | 25 µg/mL
Cc1cccc(CSc2ncnc3nc[nH]c23)c1 | H37Ra | - | - | MIC | - | >12.8 µg/mL
Cc1ccc2c(c1)NC(c1ccccn1)S2 | H37Rv | - | - | MIC | - | 3.1 µg/mL
Nc1ccc2oc3cccnc3c2c1 | H37Rv | BACTEC | 12.5 µg/mL | inhibition | - | 11%
C[n+]1cc2c(cn3c4ccccc4ccc23)c2ccccc21.[I-] | H37Ra | resazurin / visual reading | - | MIC | - | 1.5 µg/mL
CC(C)N=c1cc2n(-c3ccccc3)c3ccccc3nc-2cc1Nc1ccccc1 | H37Rv | - | - | MIC | - | 1 µg/mL
COc1ccc2c(O)c(Oc3ccccc3)c(=O)oc2c1 | H37Rv | BACTEC | 12.5 µg/mL | inhibition | - | 16%
COc1cc(/C=C/C=O)ccc1O | H37Rv (ATCC 27294) | - | - | MIC | - | 64 µg/mL
COc1cc(/C=N\n2c(Cc3cccs3)n[nH]c2=S)cc(OC)c1OC | H37Rv (ATCC 27294) | - | 6.25 µg/mL | inhibition | - | 43%
CCOC(=O)c1ccc(-c2ccccc2)nc1C | H37Rv | - | - | MIC | - | >25 µg/mL
S=c1[nH]nc(Cc2cccs2)n1/N=C\c1ccccc1 | H37Rv (ATCC 27294) | - | 6.25 µg/mL | inhibition | - | 36%
CCCCCCCCCN1C(=O)CC(SCCNC(=O)c2ccc(CCCC)cc2)C1=O | H37Rv | - | - | MIC | - | ≤20 µg/mL
CO[C@H]1/C=C/O[C@@]2(C)Oc3c(C)c(O)c4c(O)c(c(/C=N/OCc5ccccc5)c(O)c4c3C2=O)NC(=O)/C(C)=C\C=C\[C@H](C)[C@H](O)[C@@H](C)[C@@H](O)[C@@H](C)[C@H](OC(C)=O)[C@@H]1C | H37Rv | - | - | MIC | - | 0.5 µg/mL
COC(=O)C1C(c2cc3ccccc3nc2Cl)C2=C(CCCC2=O)N(c2cccnc2)C1N | H37Rv | - | - | MIC | - | 100 µg/mL
c1coc(C2Nc3ccccc3S2)c1 | H37Rv | - | - | MIC | - | 3.1 µg/mL
CCCCCCCCCN1C(=O)CC(SCCNC(=O)c2ccc(OCCCCCC)cc2)C1=O | Clinical isolate (isoniazid-resistant) | - | - | MIC | - | ≤20 µg/mL
O=C(CCc1ccc(O)c(O)c1)c1ccc(O)c(O)c1O | H37Rv | BACTEC | - | MIC bound | - | >12.5 µg/mL
Oc1ccc(/C=N\n2c(Cc3cccs3)n[nH]c2=S)cc1O | H37Rv (ATCC 27294) | - | 6.25 µg/mL | inhibition | - | 69%
C[n+]1cc2c(cn3c4ccccc4ccc23)c2ccccc21 | H37Rv | resazurin / visual reading | - | MIC | p-aminosalicylic acid-resistant | 1.5 µg/mL
CN(/N=C/c1ccccc1)C(=O)c1nc2c(N)nc(-c3ccccc3)nc2nc1N | H37Rv | resazurin | 6.25 µg/mL | inhibition | - | -21%
CN[C@@H]1[C@H](O[C@H]2[C@H](O[C@H]3[C@H](O)[C@@H](O)[C@H](N=C(N)N)[C@@H](O)[C@@H]3N=C(N)N)O[C@@H](C)[C@]2(O)C=O)O[C@@H](CO)[C@H](O)[C@H]1O | MTB21 (S) | - | - | MIC | - | 0.3 µg/mL
CCN(CC)CCOc1ccc(C2Nc3ccccc3S2)cc1 | H37Rv | - | - | MIC | - | 12.5 µg/mL
CC1(C)CC(=O)c2ccc(-c3ccc([N+](=O)[O-])cc3)nc2C1 | H37Rv | - | - | MIC | - | >25 µg/mL
Cc1ccc2c(c1)NC(c1cccnc1)S2 | H37Rv | - | - | MIC | - | 3.1 µg/mL
CCN(CC)C(=O)c1c2nc3c(C(=O)N(CC)CC)ccc(C)c3oc-2c(C)c(=O)c1N | H37Rv | BACTEC | 12.5 µg/mL | inhibition | - | -5%
CCOC(=O)C1C(c2cc3cc(OC)ccc3nc2Cl)C2=C(CCCC2=O)N(c2cccnc2)C1N | H37Rv | - | 6.25 µg/mL | inhibition | - | 96%
COc1ccc(Sc2nc(Cl)nc3nc[nH]c23)cc1 | H37Ra | - | - | MIC | - | >12.8 µg/mL
CO[C@H]1/C=C/O[C@@]2(C)Oc3c(C)c(O)c4c(O)c(c(C=Nc5ccc6ccccc6c5)c(O)c4c3C2=O)NC(=O)/C(C)=C\C=C\[C@H](C)[C@H](O)[C@@H](C)[C@@H](O)[C@@H](C)[C@H](OC(C)=O)[C@@H]1C | H37Rv | - | - | MIC | - | >1 µg/mL
Cc1cccc(C)c1Sc1nc(Cl)nc2nc[nH]c12 | H37Ra | - | - | MIC | - | >12.8 µg/mL
CCCCCCCCCCC#Cc1cn(COCCO)c(=O)n(C#CCCCCCCCCCC)c1=O | H37Ra | - | - | EC50 | - | >100 µg/mL
NC(=S)N/N=C1/C(=O)N(c2ccccc2)C(=O)C1C(=O)Nc1ccccc1 | H37Rv | BACTEC | 12.8 µg/mL | inhibition | - | 21%
NC[C@@H]1O[C@H](O[C@H]2[C@@H](O)[C@H](O[C@@H]3[C@@H](O)[C@H](N)C[C@H](N)[C@H]3O[C@H]3O[C@H](CO)[C@@H](O)[C@H](O)[C@H]3N)O[C@@H]2CO)[C@H](N)[C@@H](O)[C@@H]1O | MTB25 (S) | - | - | MIC | - | 0.75 µg/mL
COc1cc(OC)c([C@H]2OC(=O)C3C2C(=O)O[C@@H]3c2cc(OC)c(OC)cc2OC)cc1OC | H37Rv | BACTEC | - | MIC bound | - | >12.5 µg/mL
Cc1ccc2c(c1)NC(C)(c1ccccn1)S2 | H37Rv | - | - | MIC | - | 1.6 µg/mL
Cc1ccc(CSc2ccccn2)cc1 | H37Ra | - | - | MIC | - | >12.8 µg/mL
c1ccc2c(c1)NC(c1ccc3c(c1)OCO3)S2 | H37Rv | - | - | MIC | - | 200 µg/mL
O[C@@H]1[C@@H](O)[C@@H](O)CN2CC[C@H](O)[C@@H]12 | H37Rv | BACTEC | 12.5 µg/mL | inhibition | - | 16%
CCCCCCCCCN1C(=O)CC(NCCN(CCCC)CCCC)C1=O | Clinical isolate (isoniazid-resistant) | - | - | MIC | - | ≤20 µg/mL
Nc1n[nH]c(=O)[nH]1 | H37Rv | BACTEC | - | MIC bound | - | >12.5 µg/mL
CSc1cc(C(N)=S)cc(Br)n1 | H37Rv | - | - | MIC | - | 500 µM
COc1ccc(/C=N/NC(=O)C(=O)N/N=C/c2ccc(OC)c(OC)c2)cc1OC | H37Rv | BACTEC | 12.5 µg/mL | inhibition | - | -3%
CC(=O)Oc1ccc2c(c1)C[C@]1(C)[C@@H](C)CCC3C(C)(C)CCC[C@]31O2 | H37Rv | - | - | EC50 | - | >6.25 µg/mL
CC(=O)c1cc2c(cc1O)oc1c(C)ccc(C)c12 | H37Rv | BACTEC | - | MIC bound | - | >12.5 µg/mL
Cc1ccc(-c2ccc3c(n2)CCC(C)(C)C3=O)cc1 | H37Rv | - | - | MIC | - | >25 µg/mL
O=c1[nH]c(=O)n(COCCO)cc1[N+](=O)[O-] | H37Ra | - | - | EC50 | - | >100 µg/mL
CC(=O)c1cc2cc3c4c(c2oc1=O)CCCN4CCC3 | H37Rv | BACTEC | - | MIC bound | - | >12.5 µg/mL
O=c1nc(SCc2ccc(F)cc2C(F)(F)F)c2[nH]cnc2[nH]1 | H37Rv | - | - | MIC90 | - | >6.25 µg/mL
CCSc1cc(C(N)=S)cc(Br)n1 | H37Rv | - | - | MIC | - | 250 µM
COC(=O)C1C(c2cc3cc(Cl)ccc3nc2Cl)C2=C(CCCC2=O)N(c2cccnc2)C1N | H37Rv | - | 6.25 µg/mL | inhibition | - | 84%
NCCCNCCCCNC(=O)C(O)NC(=O)CCCCCCN=C(N)N | H37Rv | BACTEC | - | MIC bound | - | >12.5 µg/mL
C/C=C/C1=CC=C/C(=C2\C(=O)CNC2=O)O1 | H37Rv | resazurin / visual reading | - | MIC | - | 6.2 µg/mL
CCCCCCCCCN1C(=O)CC(SCCNC(=O)C2CC2)C1=O | Clinical isolate (isoniazid-resistant) | - | - | MIC | - | ≤20 µg/mL
CO[C@H]1/C=C/O[C@@]2(C)Oc3c(C)c(O)c4c(O)c(c(C=NN)c(O)c4c3C2=O)NC(=O)/C(C)=C\C=C\[C@H](C)[C@H](O)[C@@H](C)[C@@H](O)[C@@H](C)[C@H](OC(C)=O)[C@@H]1C | H37Rv | - | - | MIC | - | 1 µg/mL
CSc1cc(C(N)=O)cc(Br)n1 | H37Rv | - | - | MIC | - | >1000 µM
N#CC1C(c2cc3cc(Cl)ccc3nc2Cl)C2=C(CCCC2=O)N(c2cccnc2)C1N | H37Rv | - | 6.25 µg/mL | inhibition | - | 14%
O=C1NOCC1NCc1c(O)ccc2ccccc12 | H37Rv | BACTEC | - | MIC bound | - | >12.5 µg/mL
CCCCCCCCC#Cc1cn(COC(CO)CO)c(=O)[nH]c1=O | H37Ra | - | - | EC50 | - | 10 µg/mL
COc1ccc2nc3cc(Cl)ccc3c(NN3CCN(CCO)CC3)c2c1 | H37Rv | BACTEC | - | MIC bound | - | >12.5 µg/mL
CC(C)CN=c1cc2n(-c3ccc(Cl)cc3)c3ccccc3nc-2cc1Nc1ccc(Cl)cc1 | H37Rv | - | - | MIC | - | 0.5 µg/mL
CC1=CCC[C@@]2(C)O[C@H]2[C@H]2OC(=O)[C@@H](C)[C@@H]2CC1 | - | - | - | MIC | - | 128 µg/mL
COc1cccc(CSc2ncnc3nc[nH]c23)c1 | H37Rv | - | 6.25 µg/mL | inhibition | - | 18%
O=c1ccc(C2Nc3ccccc3S2)c[nH]1 | H37Rv | - | - | MIC | - | 1.6 µg/mL
CC(C)c1cc2c(cc1O)[C@@]1(C)CCCC(C)(C)C1CC2 | H37Rv | - | - | EC50 | - | >12.5 µg/mL
CO[C@H]1/C=C/O[C@@]2(C)Oc3c(C)c(O)c4c(O)c(c(/C=N/N5CCN(C)CC5)c(O)c4c3C2=O)NC(=O)/C(C)=C\C=C\[C@H](C)[C@H](O)[C@@H](C)[C@@H](O)[C@@H](C)[C@H](OC(C)=O)[C@@H]1C | H37Rv | - | - | MIC | - | 0.5 µg/mL
C=C(CNCCCCCCCCCCCCC)N(CCC[NH3+])CC(=O)N(CC(=O)N(CC(=O)N(CCCCN)CC(N)=O)[C@H](C)c1ccccc1)[C@@H](C)c1ccccc1 | H37Ra | resazurin | - | MIC | - | 6.6 µM
CO[C@H]1/C=C/O[C@@]2(C)Oc3c(C)c(O)c4c(O)c(c(CO)c(O)c4c3C2=O)NC(=O)/C(C)=C\C=C\[C@H](C)[C@H](O)[C@@H](C)[C@@H](O)[C@@H](C)[C@H](OC(C)=O)[C@@H]1C | H37Rv | - | - | MIC | - | >5 µg/mL
Cc1ccc(/C=N\n2c(Cc3cccs3)n[nH]c2=S)cc1 | H37Rv (ATCC 27294) | - | 6.25 µg/mL | inhibition | - | 49%
[N-]=[N+]=NC(CCl)c1cn(COCCO)c(=O)[nH]c1=O | H37Ra | - | - | EC50 | - | >10 µg/mL
CO[C@H]1/C=C/O[C@@]2(C)Oc3c(C)c(O)c4c(O)c(c(/C=N/N=C(N)N)c(O)c4c3C2=O)NC(=O)/C(C)=C\C=C\[C@H](C)[C@H](O)[C@@H](C)[C@@H](O)[C@@H](C)[C@H](OC(C)=O)[C@@H]1C | H37Rv | - | - | MIC | - | 5 µg/mL
CCCCCCCSc1cc(C(N)=O)cc(Br)n1 | H37Rv | - | - | MIC | - | 250 µM
C=CCOC(Cn1ccnc1)c1ccc(Cl)cc1Cl | H37Rv | resazurin | - | MIC bound | - | <6.25 µg/mL
Cc1ccc(OC/C(N)=N\NC(=O)c2ccncc2)cc1 | ATCC 35820 (streptomycin-resistant) | - | - | MIC | - | 6.25 µg/mL
COC1/C=C\C=C(/C)C(=O)Nc2cc3nc4cc(Br)ccc4oc-3c(c2=O)CC(C)CC(OC)C(O)C(C)/C=C(\C)C1OC(N)=O | H37Rv | BACTEC | 12.5 µg/mL | inhibition | - | 99%
CCOC(=O)C1C(c2cc3ccccc3nc2Cl)C2=C(CCCC2=O)N(c2cccnc2)C1N | H37Rv | - | 6.25 µg/mL | inhibition | - | 8%
COC(=O)[C@H]1[C@H](O)[C@@H](C)[C@@H](O)[C@](C)(O)/C=C(\C)C2=C3C(=C(C)C(=O)c4c(O)c(c(C)c(OC(C)=O)c43)NC(=O)/C(C)=C/C=C\[C@@H](C)C(O)[C@@H](C)[C@H]1O)OCO2 | CS-R | - | - | MIC | - | 0.2 µg/mL
Cc1cccc(OC/C(N)=N\NC(=O)c2ccncc2)c1 | 16 isolates | - | - | MIC90 | - | 12.5 µg/mL

Again, the opening 7 rows:

SMILES,strain,method,tested at,endpoint,mutations,result
O=C(Nc1ccc(NC(=O)Oc2cccc3ccccc23)c2c1C(=O)c1ccccc1C2=O)Oc1cccc2ccccc12,H37Rv,BACTEC,12.5 µg/mL,inhibition,-,20%
Clc1ccc(Nc2cc3nc4ccccc4n(-c4ccc(Cl)cc4)c-3cc2=NC2CCCCC2)cc1,H37Rv,-,-,MIC,-,0.33 µg/mL
C=C1CC(O)C2C(=C)C(=O)OC2C2C(C)C(=O)CC12,H37Rv,BACTEC,-,MIC bound,-,>12.5 µg/mL
c1cncc(C2Nc3ccccc3S2)c1,H37Rv,-,-,MIC,-,4.4 µg/mL
CCOC(=O)c1ccc(-c2ccc[nH]2)nc1C,H37Rv,-,-,MIC,-,25 µg/mL
Cc1cccc(CSc2ncnc3nc[nH]c23)c1,H37Ra,-,-,MIC,-,>12.8 µg/mL
Cc1ccc2c(c1)NC(c1ccccn1)S2,H37Rv,-,-,MIC,-,3.1 µg/mL